The record followed here is US6313094A, “β-amino-α-hydroxycarboxylic acid derivatives and HIV protease inhibitors” (priority 1990, dated 2001).

What is called pIC50 is the negative decadic logarithm of the IC50, by convention in mol/L. Higher therefore signals a small IC50. As a reminder, the pKi is the negative decadic logarithm of the Ki, by convention in mol/L. A higher pKi goes with a low Ki.

pIC50, pKi: −log10 of the molar value.

In the assay the target is T1, chemically synthesized HIV protease (Human immunodeficiency virus type 1 group M subtype B, UniProt P12497, C555A/C583A).
T1 construct: The HIV protease was chemically synthesized; made in house; host or cells: chemical (peptide) synthesis, no expression host
Format: biochemical.

The substance “Benzyloxycarbonyl-Asn-(2S,3S)-AHPBA-Pro-Ile-NH--CH2 --C6 H11 [Example 32]” had a pIC50 of 7.22 and a negative-log Ki (pKi) of 8.00.
